Anti-infective test results gathered from many reports (values: NIAID ChemDB through PubChem).

Common to all: target-level tests

ICn: concentration for n% inhibition. Percent inhibition refers to the dose given; in toxicity tests it is the harm to the cells. Rows are shuffled and stem from different studies. Two numbers with a dash give a range or band. An empty or dashed field is not shown.

| compound | target | endpoint | strain or isolate | method | tested at | species | result |
|---|---|---|---|---|---|---|---|
| COc1nc(NCCO)nc(Nc2ccc3cn[nH]c3c2)n1 | DNA polymerase | inhibition | - | - | 0.01 µg/mL | Hepatitis B virus | 20% |
| O=C(O)/C=C/c1ccc(NC(=O)C2(NC(=O)c3ccc4c(c3)nc(-c3ccccc3)n4C3C[C@H]4CC[C@@H]3C4)CCCC2)cc1 | NS5B polymerase | IC50 | - | - | - | Hepatitis C virus | 0.5–5 µM |
| COc1nc(NCCc2c[nH]c3ccccc23)nc(Nc2ccc3cn[nH]c3c2)n1 | Nonstructural protein 5B | inhibition | - | - | 0.1 µg/mL | Hepatitis C virus | 6% |
| CCCN(NC(=O)[C@H]1C[C@@H](OCc2ccccc2)CN1C(=O)[C@@H](NC(=O)[C@@H](OC(=O)[C@@H](CC(=O)O)NC(=O)[C@H](CC(=O)O)NC(C)=O)[C@H](C)CC)C(C)C)C(=O)NC1CCc2ccccc21 | Serine protease | IC50 | - | - | - | Hepatitis C virus | 0.1 µM |
| C=Cc1ccc(C(NC(=O)OC2CCCC2)C(=O)Nc2cccc(C(=O)NS(=O)(=O)c3ccc(C(F)(F)F)cc3)c2)cc1Oc1cc(OC)nc(-c2ccccc2)n1 | Nonstructural protein 3/4A | Ki | GT1a | FRET | - | Hepatitis C virus | 0.072 µM |
| O=C(Nc1ccc2cn[nH]c2c1)c1cc(NCCN2CCOCC2)c(F)cc1F | Reverse transcriptase | inhibition | - | - | 0.01 µg/mL | Hepatitis B virus | 12% |
| O=C(O)/C=C/c1ccc(NC(=O)C2(NC(=O)c3ccc4c(c3)nc(-c3ccoc3)n4C3CCCCC3)CCCC2)cc1 | NS5B polymerase | IC50 | - | - | - | Hepatitis C virus | <0.5 µM |
| Nc1ccn([C@H]2CS[C@@H](COP(=O)(O)OP(=O)(O)OP(=O)(O)O)O2)c(=O)n1 | DNA polymerase | IC50 | Polymerase mutant M550V | - | - | Hepatitis B virus | 0.305 µM |
| O=C(O)C(Cc1ccccc1)N(Cc1cc(-c2nccs2)cs1)C(=O)c1ccc(Cl)cc1Cl | RNA-dependent RNA polymerase | IC50 | - | - | - | Hepatitis C virus | <5 µM |
| O=C(NS(=O)(=O)Cc1ccccc1)c1cnn2c(C3CCCCC3)c(-c3ccc(F)cc3)cnc12 | RNA-dependent RNA polymerase | IC50 | - | - | - | Hepatitis C virus | <1 µM |
| COc1nc(NCCc2ccccn2)nc(Nc2ccc3[nH]ncc3c2)n1 | DNA polymerase | IC50 | - | - | - | Hepatitis B virus | 0.1–1 µg/mL |
| FC(F)(F)c1cc(COc2ccc(-c3cnc4c(-c5nn[nH]n5)cnn4c3C3CCCCC3)cc2)ccc1Cl | RNA-dependent RNA polymerase | IC50 | - | - | - | Hepatitis C virus | 1–10 µM |
| COC(=O)c1ccc(-c2ccc(CN([C@@H](Cc3ccccc3)C(=O)O)S(=O)(=O)c3c(C)cc(OC)c(C)c3C)cc2)o1 | RNA-dependent RNA polymerase | IC50 | - | - | - | Hepatitis C virus | >20 µM |
| O=C(O)c1cc2ncc(-c3ccccc3)c(-c3ccc(Cl)cc3)n2n1 | RNA-dependent RNA polymerase | IC50 | - | - | - | Hepatitis C virus | >10 µM |
| CC(C)NC1=NC(NC(C)C)N(CN)C(Nc2ccc3cn[nH]c3c2)=N1 | DNA polymerase | inhibition | - | - | 0.01 µg/mL | Hepatitis B virus | 36% |
| O=C(O)c1ccc(-c2ccc(CN(C(=O)c3ccc(Cl)cc3Cl)[C@@H](Cc3ccccc3)C(=O)O)o2)cc1 | RNA-dependent RNA polymerase | IC50 | - | - | - | Hepatitis C virus | <5 µM |
| C=Cc1ccc(C(NC(=O)c2cccnc2)C(=O)Nc2cccc(C(=O)NS(=O)(=O)c3ccc(C(F)(F)F)cc3)c2)cc1Oc1cc(OC)nc(-c2ccccc2)n1 | Nonstructural protein 3/4A | Ki | GT1a | FRET | - | Hepatitis C virus | 0.24 µM |
| COc1nc(NCCCN2CCOCC2)nc(Nc2ccc3[nH]ncc3c2)n1 | DNA polymerase | inhibition | - | - | 0.01 µg/mL | Hepatitis B virus | 24% |
| O=C(O)[C@H](Cc1ccccc1)N(Cc1ccc(Br)cc1)C(=O)c1ccc(Cl)cc1Cl | RNA-dependent RNA polymerase | IC50 | - | - | - | Hepatitis C virus | <5 µM |
| COc1nc(NCCCN2CCCC2=O)nc(Nc2ccc3cn[nH]c3c2)n1 | DNA polymerase | inhibition | - | - | 0.1 µg/mL | Hepatitis B virus | 30% |
| CC(NC(=O)c1ccc2c(c1)nc(-c1ccoc1)n2C1CCCCC1)C(=O)Nc1ccc(CCCC(=O)O)cc1 | NS5B polymerase | IC50 | - | - | - | Hepatitis C virus | 0.5–5 µM |
| C=Cc1ccc(C(NC(C)=O)C(=O)Nc2cccc(C(=O)NS(=O)(=O)c3ccc(C(F)(F)F)cc3)c2)cc1Oc1cc(OC)nc(-c2ccccc2)n1 | Nonstructural protein 3/4A | Ki | GT1a | FRET | - | Hepatitis C virus | 0.7 µM |
| COc1ccc(-c2ccc(CN(C(=O)c3ccc(Cl)cc3Cl)C(Cc3ccccc3)C(=O)O)s2)cc1 | RNA-dependent RNA polymerase | IC50 | - | - | - | Hepatitis C virus | <5 µM |
| CN(C)CCNc1cc(C(=O)Nc2ccc3cn[nH]c3c2)c(F)cc1F | Reverse transcriptase | inhibition | - | - | 1 µg/mL | Hepatitis B virus | 39% |
| C=Cc1ccc(C(NC(=O)OC(C)(C)C)C(=O)Nc2cccc(C(=O)NS(=O)(=O)c3ccc(C(F)(F)F)cc3)c2)cc1Oc1cc(OC)nc(-c2ccccc2)n1 | Nonstructural protein 3/4A | Ki | GT1a | FRET | - | Hepatitis C virus | 0.058 µM |
| Cc1nc(Nc2ccc(NC(=O)C3(NC(=O)c4ccc5c(c4)nc(-c4ccoc4)n5C4CCCCC4)CCCC3)cn2)sc1C(=O)O | NS5B polymerase | IC50 | - | - | - | Hepatitis C virus | 0.5–5 µM |
| O=C(O)C(Cc1ccccc1)N(Cc1ccc(-c2ccncc2)o1)C(=O)c1ccc(Cl)cc1Cl | RNA-dependent RNA polymerase | IC50 | - | - | - | Hepatitis C virus | <5 µM |
| O=C(O)/C=C/c1ccc(NC(=O)C2(NC(=O)c3ccc4c(c3)nc(-c3ccccn3)n4C3C[C@H]4CC[C@@H]3C4)CCCC2)cc1 | NS5B polymerase | IC50 | - | - | - | Hepatitis C virus | <0.5 µM |
| O=C(O)c1cc2nc(-c3ccc(Cl)cc3)cc(NCc3ccccc3Cl)n2n1 | RNA-dependent RNA polymerase | IC50 | - | - | - | Hepatitis C virus | >10 µM |
| O=C(Nc1ccc2cn[nH]c2c1)c1cc(NCCCn2ccnc2)c(F)cc1F | Reverse transcriptase | inhibition | - | - | 0.1 µg/mL | Hepatitis B virus | 45% |
| COc1cccc(-c2cc(-c3ccc(Oc4ccccc4)cc3)nc3cc(C(=O)O)nn23)c1 | RNA-dependent RNA polymerase | IC50 | - | - | - | Hepatitis C virus | 1–10 µM |
| COc1nc(Nc2ccc3[nH]ncc3c2)nc(N2CCCC2)n1 | DNA polymerase | IC50 | - | - | - | Hepatitis B virus | 0.1–1 µg/mL |
| O=C(O)[C@H](Cc1ccccc1)N(Cc1cc(-c2ccc(Cl)cc2Cl)cs1)C(=O)c1ccc(Cl)cc1Cl | RNA-dependent RNA polymerase | IC50 | - | - | - | Hepatitis C virus | <5 µM |
| O=C(Nc1ccc2[nH]ncc2c1)c1cc(NCCCn2ccnc2)c(F)cc1F | Reverse transcriptase | inhibition | - | - | 0.01 µg/mL | Hepatitis B virus | 48% |
| COc1ccccc1-c1ccc(-c2nc3cc(C(=O)O)[nH]n3c(=O)c2C2CCCCC2)cc1 | RNA-dependent RNA polymerase | IC50 | - | - | - | Hepatitis C virus | 1–10 µM |
| CCN(CCO)c1cc(C(=O)Nc2ccc3cn[nH]c3c2)c(F)cc1F | Reverse transcriptase | inhibition | - | - | 0.1 µg/mL | Hepatitis B virus | 56% |
| O=C(O)c1cc2nc(-c3ccc(Cl)cc3Cl)cc(-c3cccc(Cl)c3)n2n1 | RNA-dependent RNA polymerase | IC50 | - | - | - | Hepatitis C virus | >10 µM |
| C=CCCCc1ccc(S(=O)(=O)NC(=O)c2ccccc2NC(=O)C(NC(=O)OC(C)(C)C)c2ccc(C=C)c(Oc3cc(OC)nc(-c4ccccc4)n3)c2)cc1 | Nonstructural protein 3/4A | Ki | GT1a | FRET | - | Hepatitis C virus | 0.19 µM |

Again, the opening 5 rows:

compound	target	endpoint	strain or isolate	method	tested at	species	result
COc1nc(NCCO)nc(Nc2ccc3cn[nH]c3c2)n1	DNA polymerase	inhibition	-	-	0.01 µg/mL	Hepatitis B virus	20%
O=C(O)/C=C/c1ccc(NC(=O)C2(NC(=O)c3ccc4c(c3)nc(-c3ccccc3)n4C3C[C@H]4CC[C@@H]3C4)CCCC2)cc1	NS5B polymerase	IC50	-	-	-	Hepatitis C virus	0.5–5 µM
COc1nc(NCCc2c[nH]c3ccccc23)nc(Nc2ccc3cn[nH]c3c2)n1	Nonstructural protein 5B	inhibition	-	-	0.1 µg/mL	Hepatitis C virus	6%
CCCN(NC(=O)[C@H]1C[C@@H](OCc2ccccc2)CN1C(=O)[C@@H](NC(=O)[C@@H](OC(=O)[C@@H](CC(=O)O)NC(=O)[C@H](CC(=O)O)NC(C)=O)[C@H](C)CC)C(C)C)C(=O)NC1CCc2ccccc21	Serine protease	IC50	-	-	-	Hepatitis C virus	0.1 µM
C=Cc1ccc(C(NC(=O)OC2CCCC2)C(=O)Nc2cccc(C(=O)NS(=O)(=O)c3ccc(C(F)(F)F)cc3)c2)cc1Oc1cc(OC)nc(-c2ccccc2)n1	Nonstructural protein 3/4A	Ki	GT1a	FRET	-	Hepatitis C virus	0.072 µM